The values are deposited in ChEMBL (CHEMBL3988442, “University of Dundee, Small-Polar-MMV Screening Library” (2021)).

Mtb glucose medium: 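Phenotypic screen: M. tuberculosis growth, glucose 7H9 medium, 3 days; the read-out is not stated. Tested at 50 µM. The record gives no direction; compounds that gave an IC50 in retests scored well above the rest, so higher reads as more growth inhibition. About 69,000 compounds were tested under these conditions; 1.1% (about 760) showed 50% or more at least once.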
Mtb cholesterol medium: 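Growth of Mycobacterium tuberculosis over 4 days (cholesterol / DPPC medium with tyloxapol); the read-out is not stated. Concentration: 50 µM. Higher reads as more growth inhibition (inferred: compounds with an IC50 in retests scored well above the rest). Of about 69,000 compounds tested this way, about 370 (0.54%) reached 50% or more in at least one test.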

The filed quantity is “Percent Effect” (%).
How 0% and 100% were set is not recorded. Most values in the screen are low, and negative values occur.
The entries come from a sample that favours strong results.
Two or more numbers in one place are separate tests of the same structure; such repeats can differ widely.
A dash means the value is not listed here; it may have been measured.

| compound | Mtb glucose medium | Mtb cholesterol medium |
|---|---|---|
| `Cn1cc(CNC2CCCOc3c(Cl)cccc32)cn1` (stereo not given) | 2.795% & -40.97% | - |
| `CC(=O)N1CCCC(c2cccc(-n3ccnc3)n2)C1` (stereo not given) | 10.81% | 6.652% |
| `COc1ccc(CCCN(C)C(=O)c2cc(Cl)c[nH]2)cc1OC` | 2.651% | 8.396% |
| `CO[C@@H]1CCN(C2CCOCC2)C[C@@H]1Cc1ccccc1.O=C(O)C(F)(F)F` | -43.87% | - |
| `Fc1ccc(N2CCCN(c3ccc(Cn4ccnc4)cn3)CC2)cc1` | 68.18% | 63.92% |
| `Cn1cc(C(=O)Nc2ccc3c(c2)N(C(=O)c2ccco2)CC3)nn1` | -5.617% | - |
| `CCC(C)(O)CNc1ccc(S(=O)(=O)C(F)F)cc1` (stereo not given) | -7.101% | 17.89% |
| `Cc1nc(-c2cccc(N3CCC(N4CCCC4)CC3)c2)cs1` | 66% | - |
| `Cc1nc(C2CCN(C(=O)c3cc(C4CC4)[nH]n3)CC2)no1` | -7.492% | - |
| `CCCn1nnc(NCc2ccc(-c3ccc(Br)cc3)o2)n1` | 10.86% & 29.41% | 14.46% |
| `Clc1cc(CN2CCCN3CCCC3C2)c2ncccc2c1` (stereo not given) | 72.17% | - |
| `O=C(Nc1ccccn1)C1CCN(C(=O)COc2ccccc2F)C1` (stereo not given) | 15.35% | - |
| `COc1ccc(C2CCCCCN2S(=O)(=O)N(C)C)cc1` (stereo not given) | 2.183% & 19.04% | - |
| `O=C(c1ccn(COc2ccc(F)cc2)n1)N1CCCCCC1` | -1.878% | 14.95% |
| `CCn1nc(C)c2nc(C(C)C)nc(NCCc3ccc(O)cc3)c21` | 50.15% | - |
| `CS(=O)(=O)N1CCc2[nH]cnc2C12CCN(C(=O)c1ccccc1)CC2` | - | 73.4% & 2.447% |
| `FC(F)(F)Oc1ccc(-c2noc([C@@H]3Cc4nc[nH]c4CN3)n2)cc1` | 39.29% & 38.51% | - |
| `CCn1nc(C)c(NC(=O)c2cc(NC(=O)C3CC3)n(C)n2)c1C` | -3.45% | - |
| `O=C1CC2(CCN(Cc3ncc[nH]3)CC2)CN1Cc1ccc(Cl)cc1` | 26.93% | - |
| `O=C(CCN1CCCN(c2nccs2)CC1)NCC1CCCCC1` | -12.03% | - |
| `CS(=O)(=O)NC1CCN(C(=O)c2cc3ccccc3s2)C1` (stereo not given) | -1.393% & 3.717% | - |
| `Cc1cc(NCCC(=O)NC2CCCC2)nc(-c2ccncc2)n1` | 0.8916% | - |
| `COc1ccc(CN2CCC(O)(CN3CCCCC3)C2)c(C)c1` (stereo not given) | 2.125% | - |
| `CC(CCc1ccc(O)cc1)NC1CCN(C(=O)C(C)C)CC1` (stereo not given) | 11.11% | - |
| `O=C(Cn1cnnn1)Nc1ccc(F)cc1OCC1CC1` | - | -0.5116% & -3.254% |
| `O=C1C(n2nnc(-c3ccsc3)n2)CCN1CC(F)(F)F` (stereo not given) | 29.14% | 17.1% |
| `Clc1ccccc1-c1nnc(CNCCn2cccn2)o1` | 10.07% | - |
| `CCc1ccc(C(C)NC(=O)c2ccc(CS(C)(=O)=O)o2)cc1` (stereo not given) | 31.4% & 28.26% | - |
| `CCCC(=O)N(CCCN1CCOCC1)c1nc2c(C)ccc(Cl)c2s1.Cl` | 19.43% & 20.22% | 49.91% |
| `CC(C)OCCCNC(=O)CS(=O)(=O)Cc1cccc(Cl)c1` | 9.604% | -7.288% |
| `NCC1CCCN(c2nc(-c3ccccc3)nc3c2CCNCC3)C1` (stereo not given) | 56.71% | 52.31% & 31.75% |
| `COc1ccc(C(=O)NCc2ccc(C(=O)O)o2)cc1` | -20.82% & 0.4671% | - |
| `CC(C)N1CC(C(=O)NCc2ccc(S(=O)(=O)N(C)C)cc2)CC1=O` (stereo not given) | - | -4.178% & 74.24% |
| `CC(C)COCC(NC(=O)c1ccncc1)c1ccco1` (stereo not given) | -21.87% | - |
| `Cc1noc(NC(=O)c2ccc(C)c(F)c2)n1` | 94.51% | - |
| `O=C(CC(SC1CCCCC1)C(=O)O)c1ccc(Br)cc1` (stereo not given) | 16.71% & -11.52% | - |
| `COCc1noc(-c2ccc(N3CCCC3c3ccc(F)cc3)nc2)n1` (stereo not given) | -5.276% | - |
| `CCCNc1ccc(C(=O)NCCc2ccc(Cl)cc2)cn1` | - | 5.471% |
| `CCn1ncc(NC(=O)c2cc(C3CC3)nc3c2c(C)nn3C)c1C` | -13.24% | - |
| `CNc1nc2c(s1)C(c1ccc(F)cc1Cl)CC(=O)N2` (stereo not given) | 36.85% | - |
| `Cc1cc(C(O)CCNS(=O)(=O)c2ccc(Cl)s2)c(C)o1` (stereo not given) | 10.29% | - |
| `[H][C@@]12CCN(C(=O)c3cnoc3C)C[C@]1([H])[C@@H](CN1CCCC1)OC2` | 54.1% | - |
| `CCOCCNc1nc(C2CCCC2)nc2c1cnn2C` | -0.1634% & 11.76% | - |
| `NCc1ccnc(Oc2ccc(F)cc2)c1` | 9.119% | - |
| `CCc1ccc(CN(C/C=C/c2ccccc2)CCOC)nc1` | 55.27% | - |
| `CCCn1nnc(NCc2cc(Br)cc(Br)c2OC)n1` | 39.99% | -10.06% |
| `Cc1nc(-c2ccsc2)ccc1C(=O)N(C)CC(F)(F)F` | 14.93% | - |
| `CC(Cn1cccn1)NCc1csc(-c2cccs2)n1` (stereo not given) | 12.88% | -21.71% |
| `Cc1nc(CN2CCOC3(CCCC3)C2)oc1C` | 17.29% | - |
| `CCc1ccc(CN2CCC3(CCCN(C(=O)N(C)C)C3)C2)o1` (stereo not given) | -0.4561% & -12.96% | -14.97% |

Some entries from above, unchanged:

For CCn1nc(C)c2nc(C(C)C)nc(NCCc3ccc(O)cc3)c21 the result was Mtb glucose medium: 50.15%.
For Cn1cc(C(=O)Nc2ccc3c(c2)N(C(=O)c2ccco2)CC3)nn1 the result was Mtb glucose medium: -5.617%.
For CO[C@@H]1CCN(C2CCOCC2)C[C@@H]1Cc1ccccc1.O=C(O)C(F)(F)F the result was Mtb glucose medium: -43.87%.